Measurements from patent US20160024159A1, “Potent and selective inhibitors of Nav1.7” (published 2016).

Each binder was assayed against human Nav1.4 voltage-gated sodium channel (human), P35499 (assay: cell-based or functional assay).

| Binder | PX hNav1.4 Tonic IC50 [nM] | Nav1.4/Nav1.7 |
| --- | --- | --- |
| KAYCQKWLWTCDSKRKCCEGLRCKLWCRKEI (modifications not checked) [Homodimeric Conjugate No. 9] | 118 |  |
| YCQKWLWTCDGKRACCEGLECKLWCRKYI (modifications not checked) [[Nle6; Pra11; Glu20; Tyr28]JzTx-V(1-29)] | 825 | 643 |
| YCQKWLWTCDSKRGCCEGLECKLWCRKII (modifications not checked) [[Nle6; Pra14; Glu20]JzTx-V(1-29)] | 1660 | 232 |
| AYCQKWLWTCDSKRACCAGLRCKLWCRKEI (modifications not checked) [Homodimeric Conjugate No. 8] | 52.6 |  |
| YCQKWLWTCDSKRGCCEGLECKLWCRKYI (modifications not checked) [[Nle6; Pra14; Glu20; Tyr28]JzTx-V(1-29)] | 707 | 402 |

The binders below were run against human Nav1.5 voltage-gated sodium channel (human), Q14524 (assay: cell-based or functional assay).

| Binder | PX hNav1.5 Tonic IC50 [nM] | Nav1.5/Nav1.7 |
| --- | --- | --- |
| KAYCQKWLWTCDSKRKCCEGLRCKLWCRKEI (modifications not checked) [Homodimeric Conjugate No. 9] | 1690 |  |
| YCQKWLWTCDGKRACCEGLECKLWCRKYI (modifications not checked) [[Nle6; Pra11; Glu20; Tyr28]JzTx-V(1-29)] | 2460 | 1910 |
| YCQKWLWTCDSKRGCCEGLECKLWCRKII (modifications not checked) [[Nle6; Pra14; Glu20]JzTx-V(1-29)] | 4570 | 638 |
| AYCQKWLWTCDSKRACCAGLRCKLWCRKEI (modifications not checked) [Homodimeric Conjugate No. 8] | 1530 |  |
| YCQKWLWTCDSKRGCCEGLECKLWCRKYI (modifications not checked) [[Nle6; Pra14; Glu20; Tyr28]JzTx-V(1-29)] | 3690 | 2100 |

These binders were tested against human Nav1.6 voltage-gated sodium channel (human), Q9UQD0 (assay: cell-based or functional assay).

| Binder | PX hNav1.6 Tonic IC50 [nM] |
| --- | --- |
| EGCQKWLWTCDEKRECCEGLRCKLWCRKEI (modifications not checked) [Glu-[Pra1;Nle6; Glu11,14,28]JzTx-V(1-29)] | > 10000 |
| GYCQKWLWTCDSKRECCEGLRCKLWCRKEI (modifications not checked) [Pra-[Nle6;Glu14,28]JzTx-V(1-29)] | 2490 |
| GECQKWLWTCDSERACCEGLRCKLWCRKEI (modifications not checked) [Pra-[Glu1,12,28;Nle6]JzTx-V(1-29)] | 1380 |
| GYCQKWLWTCDSKRACCEGLRCELWCRKEI (modifications not checked) [Pra-[Nle6;Glu22,28]JzTx-V(1-29)] | > 10000 |
| GYCQKWLWTCDSKRACCKGLRCKLWCRKEI (modifications not checked) [Pra-[Nle6;Lys17;Glu28]JzTx-V(1-29)] | 148 |
| EGCQKWLWTCDEKRACCEGLRCKLWCRKEI (modifications not checked) [Glu-[Pra1;Nle6;Glu11,28]JzTx-V(1-29)] | 2520 |
| GECQKWLWTCDSKRECCEGLRCKLWCRKEI (modifications not checked) [Pra-[Glu1,14,28;Nle6]JzTx-V(1-29)] | 2340 |
| GECQKWLWTCDEKRACCEGLRCKLWCRKEI (modifications not checked) [Pra-[Glu1,11,28;Nle6]JzTx-V(1-29)] | 2190 |
| AYCQKWLWTCDSKRECCGGLRCKLWCRKEI (modifications not checked) [CyA-[Nle6;Glu14,28;Pra17]JzTx-V(1-29)] | 175 |
| EGYCQKWLWTCDEKRACCEGLRCKLWCRKEI (modifications not checked) [Glu-Pra-[Nle6;Glu11,28]JzTx-V(1-29)] | 2870 |
| EGECQKWLWTCDEKRACCEGLRCKLWCRKEI (modifications not checked) [Glu-Pra-[Glu1,11,28;Nle6]JzTx-V(1-29)] | 5660 |
| EGCQKWLWTCDSKRECCEGLRCKLWCRKEI (modifications not checked) [Glu-[Pra1;Nle6; Glu14,28]JzTx-V(1-29)] | 562 |
| AYCQKWLWTCDSERACCGGLRCKLWCRKEI (modifications not checked) [CyA-[Nle6;Glu12,28;Pra17]JzTx-V(1-29)] | 1720 |
| GYCQKWLWTCDSKRACCEGLACKLWCRKEI (modifications not checked) [Pra-[Nle6;Ala20;Glu28]JzTx-V(1-29)] | > 10000 |
| GYCQKWLWTCDSKRACCEGLKCKLWCRKEI (modifications not checked) [Pra-[Nle6;Lys20;Glu28]JzTx-V(1-29)] | 245 |

The binders below were run against human Nav1.7 voltage-gated sodium channel (human), Q15858 (assay: cell-based or functional assay).

| Binder | PX hNav1.7 Tonic IC50 [nM] |
| --- | --- |
| EGCQKWLWTCDEKRECCEGLRCKLWCRKEI (modifications not checked) [Glu-[Pra1;Nle6; Glu11,14,28]JzTx-V(1-29)] | 2.91 |
| GYCQKWLWTCDSKRECCEGLRCKLWCRKEI (modifications not checked) [Pra-[Nle6;Glu14,28]JzTx-V(1-29)] | 0.975 |
| GECQKWLWTCDSERACCEGLRCKLWCRKEI (modifications not checked) [Pra-[Glu1,12,28;Nle6]JzTx-V(1-29)] | 4.14 |
| KAYCQKWLWTCDSKRKCCEGLRCKLWCRKEI (modifications not checked) [Homodimeric Conjugate No. 9] | 1.32 |
| YCQKWLWTCDGKRACCEGLECKLWCRKYI (modifications not checked) [[Nle6; Pra11; Glu20; Tyr28]JzTx-V(1-29)] | 1.28 |
| GYCQKWLWTCDSKRACCEGLRCELWCRKEI (modifications not checked) [Pra-[Nle6;Glu22,28]JzTx-V(1-29)] | 22.6 |
| GYCQKWLWTCDSKRACCKGLRCKLWCRKEI (modifications not checked) [Pra-[Nle6;Lys17;Glu28]JzTx-V(1-29)] | 1.42 |
| EGCQKWLWTCDEKRACCEGLRCKLWCRKEI (modifications not checked) [Glu-[Pra1;Nle6;Glu11,28]JzTx-V(1-29)] | 1.46 |
| YCQKWLWTCDSKRGCCEGLECKLWCRKII (modifications not checked) [[Nle6; Pra14; Glu20]JzTx-V(1-29)] | 7.16 |
| GECQKWLWTCDSKRECCEGLRCKLWCRKEI (modifications not checked) [Pra-[Glu1,14,28;Nle6]JzTx-V(1-29)] | 1.36 |
| GECQKWLWTCDEKRACCEGLRCKLWCRKEI (modifications not checked) [Pra-[Glu1,11,28;Nle6]JzTx-V(1-29)] | 5.55 |
| AYCQKWLWTCDSKRECCGGLRCKLWCRKEI (modifications not checked) [CyA-[Nle6;Glu14,28;Pra17]JzTx-V(1-29)] | 1.19 |
| EGYCQKWLWTCDEKRACCEGLRCKLWCRKEI (modifications not checked) [Glu-Pra-[Nle6;Glu11,28]JzTx-V(1-29)] | 2.33 |
| EGECQKWLWTCDEKRACCEGLRCKLWCRKEI (modifications not checked) [Glu-Pra-[Glu1,11,28;Nle6]JzTx-V(1-29)] | 5.59 |
| EGCQKWLWTCDSKRECCEGLRCKLWCRKEI (modifications not checked) [Glu-[Pra1;Nle6; Glu14,28]JzTx-V(1-29)] | 0.525 |
| AYCQKWLWTCDSERACCGGLRCKLWCRKEI (modifications not checked) [CyA-[Nle6;Glu12,28;Pra17]JzTx-V(1-29)] | 0.87 |
| GYCQKWLWTCDSKRACCEGLACKLWCRKEI (modifications not checked) [Pra-[Nle6;Ala20;Glu28]JzTx-V(1-29)] | 905 |
| AYCQKWLWTCDSKRACCAGLRCKLWCRKEI (modifications not checked) [Homodimeric Conjugate No. 8] | 0.679 |
| GYCQKWLWTCDSKRACCEGLKCKLWCRKEI (modifications not checked) [Pra-[Nle6;Lys20;Glu28]JzTx-V(1-29)] | 0.519 |
| YCQKWLWTCDSKRGCCEGLECKLWCRKYI (modifications not checked) [[Nle6; Pra14; Glu20; Tyr28]JzTx-V(1-29)] | 1.76 |
